Pooled drug test results. Numbers come from NIAID ChemDB, via PubChem.

Common to all: whole-cell or culture tests; species: Mycobacterium tuberculosis

Conditions beyond the fields shown may differ between rows. An empty or dashed field is not shown. Percent inhibition refers to the dose given; in toxicity tests it is the harm to the cells. ECn is the concentration giving n% inhibition of infection, replication or growth. MIC50, MIC90 and the like: level of inhibition, or share of isolates inhibited. MIC bound comes from a single tested concentration.

SMILES,strain or isolate,dose,endpoint,method,result
COC(=O)c1sc(NC(=O)c2c(F)c(F)c(F)c(F)c2F)c(C(N)=O)c1C,-,-,MIC,-,4.9 µM
CC(=O)NC[C@H]1CN(c2ccc(N3CCN(c4ccc([N+](=O)[O-])s4)CC3)c(F)c2)C(=O)O1,M-66,-,MIC,-,>32 µg/mL
c1ccc(C2Nc3ccccc3S2)nc1,H37Rv,-,MIC,-,2.2 µg/mL
CC(O)(c1ccccc1)c1c(-c2ccccc2)c(-c2ccccc2)n2ccc(C#N)cc12,H37Rv,-,EC50,-,<6.25 µg/mL
Cc1[nH]c2ccc(N(C)C)cc2c(=O)c1CNCc1ccccc1,H37Rv,12.5 µg/mL,inhibition,BACTEC,0%
CC[C@H]1OC(=O)[C@H](C)[C@@H](O[C@H]2C[C@@](C)(OC)[C@@H](O)[C@H](C)O2)[C@H](C)[C@@H](O[C@@H]2O[C@H](C)C[C@H](N(C)C)[C@H]2O)[C@](C)(OC)C[C@@H](C)C(=O)[C@H](C)[C@@H](O)[C@]1(C)O,9127,-,MIC,-,>4 µg/mL
CC/C(=N\N=C\c1c2c(O)c3c(O)c(C)c4c(c3c1O)C(=O)[C@@](C)(O/C=C/[C@H](OC)[C@@H](C)[C@@H](OC(C)=O)[C@H](C)[C@H](O)[C@H](C)[C@@H](O)[C@@H](C)/C=C/C=C(/C)C(=O)N2)O4)N(CC)CC,H37Rv,-,MIC,-,0.016 µg/mL
COc1ccc(N(C)CCCC(C#N)(c2ccc(OC)c(OC)c2)C(C)C)cc1OC,H37Rv,-,MIC99,resazurin,>1000 µM
CCCCCOc1ccc(NC(=S)NCCC(=O)O)cc1,H37Rv,-,MIC,-,1.3 µg/mL
COC(=O)c1c(NC(=O)c2c(F)c(F)c(F)c(F)c2F)sc2c1CCC2,-,-,MIC,-,2.1 µM
CC1=NN(C(=O)c2ccncc2)C(=O)C1N=Nc1ccc(F)cc1,H37Rv,-,MIC bound,BACTEC,>12.5 µg/mL
COC(=O)c1cc2c(o1)C(=O)c1c(nc3ccccc3c1C)C2=O,H37Rv,-,MIC,-,19.5 µM
NC(=S)N/N=C\c1c(C(=O)O)[nH]c2ccccc12,H37Rv,-,MIC,broth dilution,0.2 µg/mL
CCCCCCCCS(=O)(=O)CC(=O)NCC(=O)O,H37Rv,-,MIC,-,>25 µg/mL
CCCCCCCCNC(=S)NCCC(=O)O,H37Rv,-,MIC,-,1.3 µg/mL
CCN(CC)/C(C)=N/N=C/c1c2c(O)c3c(O)c(C)c4c(c3c1O)C(=O)[C@@](C)(O/C=C/[C@H](OC)[C@@H](C)[C@@H](OC(C)=O)[C@H](C)[C@H](O)[C@H](C)[C@@H](O)[C@@H](C)/C=C/C=C(/C)C(=O)N2)O4,H37Rv,-,MIC,-,0.016 µg/mL
COc1c(N2C[C@@H]3CCCN[C@@H]3C2)c(F)cc2c(=O)c(C(=O)O)cn(C3CC3)c12,H37Rv,-,MIC,-,≤0.125 µg/mL
C[N+]1([O-])[C@@H]2CC[C@H]1CC(O)C2,H37Rv,12.5 µg/mL,inhibition,BACTEC,1%
COC(c1ccccc1)c1c(-c2ccccc2)c(-c2ccccc2)n2ccc(C#N)cc12,H37Rv,-,EC50,-,<6.25 µg/mL
C[C@@H]1CN(c2c(F)c(N)c3c(=O)c(C(=O)O)cn(C4CC4)c3c2F)C[C@H](C)N1,RM22,-,MIC,-,0.25 µg/mL
N#Cc1c(N)[n+]([O-])c2ccccc2[n+]1[O-],H37Rv (ATCC 27294),-,MIC,resazurin,156.3 µM
O=[N+]([O-])c1ccc2c(c1)NC(c1cccnc1)S2,H37Rv,-,MIC,-,0.4 µg/mL
Cc1cc(N)c2c(c1O)C(=O)c1ccccc1C2=O,H37Rv,-,MIC bound,BACTEC,>12.5 µg/mL
COc1nc2ccc(Br)cc2cc1[C@@H](c1ccccc1)[C@@](O)(CCN(C)C)c1cccc2ccccc12,75 clinical isolates (41 susceptible 44 MDR),-,EC50,-,<0.128 µg/mL
NNC(=O)C(=O)C1CC(c2ccc(Cl)cc2)=NNC1=O,H37Rv,6.25 µg/mL,inhibition,resazurin,7%
Nc1ccccc1C(=O)Nc1cccc(Cl)c1,My 331/88,-,MIC,-,>250 µM
N#Cc1ccn2c(-c3ccccc3)c(-c3ccccc3)c(CO)c2c1,H37Rv,-,EC50,-,<6.25 µg/mL
COc1cc2c3cc1OCc1c(O)c(OC)cc4c1[C@H](Cc1ccc(cc1)Oc1cc(ccc1O)C[C@H]3N(C)CC2)N(C)CC4,H37Rv,-,MIC,BACTEC,≥12.8 µg/mL
O=C(N[C@@H]1COc2nc([N+](=O)[O-])cn2C1)OCc1ccc(OC(F)(F)F)cc1,H37Rv,-,MIC,-,0.06 µg/mL
CCN(CC)c1ccc(N=C2C=C(C(=O)Nc3ccccc3OC)C(=O)c3ccccc32)c(C)c1,H37Rv,-,MIC bound,BACTEC,>12.5 µg/mL
CO[C@H]1/C=C/O[C@@]2(C)Oc3c(C)c(O)c4c(O)c(c5c(c4c3C2=O)NC2(CCN(CC(C)C)CC2)N=5)=NC(=O)/C(C)=C\C=C\[C@H](C)[C@H](O)[C@@H](C)[C@@H](O)[C@@H](C)[C@H](OC(C)=O)[C@@H]1C,RM22,-,MIC,-,32 µg/mL
Cc1ccc2[nH]c(C(=O)O)c(/C=N\NC(N)=S)c2c1,H37Rv,-,MIC,broth dilution,0.2 µg/mL
COc1ccc2c(c1)Sc1c(ccc3ccccc13)N2CCCN(C)C,H37Rv,12.5 µg/mL,inhibition,BACTEC,98%
c1ccc(C2(c3ccccn3)Nc3ccccc3S2)cc1,H37Rv,-,MIC,-,0.6 µg/mL
CCCCCC/C=C\CCCCCCCCCC1=C(CN2CCN(C)CC2)C(=O)C=C(OC)C1=O,H37Rv,-,MIC bound,BACTEC,≤128 µg/mL
CO[C@H]1/C=C/O[C@@]2(C)Oc3c(C)c(O)c4c(O)c(c(/C=N/N=C(\C)N5CCOCC5)c(O)c4c3C2=O)NC(=O)/C(C)=C\C=C\[C@H](C)[C@H](O)[C@@H](C)[C@@H](O)[C@@H](C)[C@H](OC(C)=O)[C@@H]1C,H37Rv,-,MIC,-,0.016 µg/mL
CNC(=O)OCC1=C(COC(=O)NC)C2OC1C(C(=O)OC)=C2C(=O)OC,H37Rv,12.5 µg/mL,inhibition,BACTEC,-10%
O=C1c2scnc2-c2nccc3c2c1nc1ccccc13,H37Rv,-,MIC,-,10.7 µM
O=C1C(N=Nc2ccc(Br)cc2)Sc2nc3ccccc3n21,H37Rv,12.5 µg/mL,inhibition,BACTEC,38%
CCOC(=O)c1[nH]c2ccc(OC)cc2c1/C=N\NC(N)=S,H37Rv,-,MIC,broth dilution,0.2 µg/mL
O=C1CCNC(=S)N1c1ccccc1,H37Rv,-,MIC,-,1.3 µg/mL
C=C1C(=O)OC2C1C(OC(=O)/C(=C/C)COC(C)=O)CC1(CO1)C1C(OC(=O)/C(=C/C)CO)C=C(C)C21,H37Rv,12.8 µg/mL,inhibition,BACTEC,15%
COC(=O)c1c(NC(=O)c2c(F)c(F)c(F)c(F)c2F)sc2c1CCCCC2,-,-,MIC,-,1 µM
Clc1cccc2c1NC(c1cccnc1)S2,H37Rv,-,MIC,-,1 µg/mL
O=C(NNC(=O)c1ccccn1)c1ccccc1,H37Rv,-,MIC bound,resazurin,>6.25 µg/mL
c1ccc2c(c1)NC(c1nc3ccccc3s1)S2,H37Rv,-,MIC,-,50 µg/mL
N#Cc1c(N)[n+]([O-])c2cc(C(F)(F)F)ccc2[n+]1[O-],H37Rv (ATCC 27294),-,MIC,resazurin,39 µM
C1=C2CCCC/C=C\C=C\CCN3CC[C@@H]4[C@H](CCCCCC/C=C\C=C/CCN(C2)C[C@H]14)C3,H37Rv (RIF-resistant),-,MIC,-,3.13 µg/mL
N[C@@H]1CONC1=O,H37Rv,-,MIC,-,7.5 µg/mL
COC(=O)c1cc2c(s1)C(=O)c1c(nc3ccccc3c1C)C2=O,H37Rv,-,MIC,-,18.5 µM
CO[C@H]1/C=C/O[C@@]2(C)Oc3c(C)c(O)c4c(O)c(c(/C=N/N5CCN(C)CC5)c(O)c4c3C2=O)NC(=O)/C(C)=C\C=C\[C@H](C)[C@H](O)[C@@H](C)[C@@H](O)[C@@H](C)[C@H](OC(C)=O)[C@@H]1C,SIT26,-,MIC,resazurin,2 µg/mL
O=C1c2c([nH]ccc2=O)-c2nccc3c2c1nc1ccccc13,H37Rv,-,MIC,-,>42 µM
CCC(C)c1ccc(NC(=O)c2cc(Cl)ccc2N)cc1,My 331/88,-,MIC,-,16 µM
CCn1cc(C(=O)OCC(=O)O[C@H]2[C@H](C)[C@H](O)[C@H](C)[C@@H](O)[C@@H](C)/C=C/C=C(/C)C(=O)Nc3c(/C=N/N4CCN(C)CC4)c(O)c4c5c(c(C)c(O)c4c3O)O[C@](C)(O/C=C/[C@H](OC)[C@H]2C)C5=O)c(=O)cc1N1CCN(C)CC1,-,-,MIC,-,<0.2 µg/mL
O=C1C=C(NCCO)c2nccc3c2c1nc1ccccc13,H37Rv,-,MIC,-,1.3 µM
CN1CC2CCC(CC1=O)N2C,H37Rv,-,MIC bound,BACTEC,>12.5 µg/mL
Cc1ccc(C(O)c2c(-c3ccccc3)c(-c3ccccc3)n3ccc(C#N)cc23)cc1,H37Rv,-,EC50,-,<6.25 µg/mL
CN1c2ccccc2SC1c1ccncc1,H37Rv,-,MIC,-,25 µg/mL
O=C(CNC(=O)c1ccccc1)N/N=C/c1cccc2ccccc12,H37Rv,12.5 µg/mL,inhibition,BACTEC,11%
Cc1ccc(S(=O)(=O)NCCNC2=CC(=O)c3nc4ccccc4c4ccnc2c34)cc1,H37Rv,-,MIC,-,3.5 µM
Cc1c(-c2ccccc2)c(-c2ccccc2)n2ccc(C#N)cc12,H37Rv,-,EC50,-,>6.25 µg/mL
Cc1cc(O)c(C(=O)CC2(O)C(=O)Nc3c(Cl)cc(Cl)cc32)c(=O)o1,H37Rv,-,MIC bound,BACTEC,>12.5 µg/mL
CCOC(=O)c1c(NC(=O)c2c(F)c(F)c(F)c(F)c2F)sc(C(N)=O)c1C,-,-,MIC,-,0.5 µM
Cc1ccc(NC(=O)c2cc(Cl)ccc2N)cc1,My 331/88,-,MIC,-,62 µM
COc1ccc2nc(Oc3ccc(Cl)cc3)c(C3C(C#N)=C(N)Oc4c3c(=O)oc3ccc(C)cc43)cc2c1,H37Rv,250 µg/mL,inhibition,-,27%
Nc1ccc(Cl)cc1C(=O)Nc1ccc(F)cc1,My 331/88,-,MIC,-,125 µM
O=[N+]([O-])c1ccc(N=NNc2ccc([N+](=O)[O-])cc2Cl)c(Cl)c1,H37Ra-lux,-,EC90,luminescence,7.27 µM
CCN(C)/C(C)=N/N=C/c1c2c(O)c3c(O)c(C)c4c(c3c1O)C(=O)[C@@](C)(O/C=C/[C@H](OC)[C@@H](C)[C@@H](OC(C)=O)[C@H](C)[C@H](O)[C@H](C)[C@@H](O)[C@@H](C)/C=C/C=C(/C)C(=O)N2)O4,H37Rv,-,MIC,-,0.016 µg/mL
Nc1ccc(C(=O)O)c(O)c1,RM22,-,MIC,-,4 µg/mL
COc1ccc(/C=N/NC(=O)c2ccco2)cc1OC,H37Rv,-,MIC,BACTEC,≥12.5 µg/mL
N#CC1=C(N)Oc2c(c(=O)oc3ccccc23)C1c1cc2ccccc2nc1Oc1ccccc1,H37Rv,250 µg/mL,inhibition,-,21%
CSc1cnc2c3c(nc4ccccc4c13)C(CCNC(C)=O)CC2=O,H37Rv,-,MIC,-,>17 µM
Cc1ccc(Oc2nc3ccccc3cc2C2C(C#N)=C(N)Oc3c2c(=O)oc2ccccc32)cc1,H37Rv,250 µg/mL,inhibition,-,10%
Clc1cccc2c1NC(c1ccncc1)S2,H37Rv,-,MIC,-,6.3 µg/mL
CCCOc1ccc(N2C(=O)CCNC2=S)cc1,H37Rv,-,MIC,-,5 µg/mL
O=C1N=C2SC=C(NC(=S)Nc3ccccc3)N2NC12c1ccccc1-c1ccccc12,H37Rv,12.5 µg/mL,inhibition,BACTEC,0%
CC(C)c1ccc(NC(=O)c2cc(Cl)ccc2N)cc1,My 331/88,-,MIC,-,16 µM
COc1c2c(c(OC)c(C(C)=O)c1OC(=O)c1ccccc1)CCO2,H37Rv,12.5 µg/mL,inhibition,BACTEC,4%
N#Cc1ccn2c(-c3ccccc3)c(-c3ccccc3)c(Br)c2c1,H37Rv,-,EC50,-,<6.25 µg/mL

For reference, 8 entries again:

| SMILES | strain or isolate | dose | endpoint | method | result |
|---|---|---|---|---|---|
| C[N+]1([O-])[C@@H]2CC[C@H]1CC(O)C2 | H37Rv | 12.5 µg/mL | inhibition | BACTEC | 1% |
| O=C1c2c([nH]ccc2=O)-c2nccc3c2c1nc1ccccc13 | H37Rv | - | MIC | - | >42 µM |
| N#CC1=C(N)Oc2c(c(=O)oc3ccccc23)C1c1cc2ccccc2nc1Oc1ccccc1 | H37Rv | 250 µg/mL | inhibition | - | 21% |
| Cc1ccc(NC(=O)c2cc(Cl)ccc2N)cc1 | My 331/88 | - | MIC | - | 62 µM |
| COc1ccc2nc(Oc3ccc(Cl)cc3)c(C3C(C#N)=C(N)Oc4c3c(=O)oc3ccc(C)cc43)cc2c1 | H37Rv | 250 µg/mL | inhibition | - | 27% |
| Cc1ccc(C(O)c2c(-c3ccccc3)c(-c3ccccc3)n3ccc(C#N)cc23)cc1 | H37Rv | - | EC50 | - | <6.25 µg/mL |
| O=C1N=C2SC=C(NC(=S)Nc3ccccc3)N2NC12c1ccccc1-c1ccccc12 | H37Rv | 12.5 µg/mL | inhibition | BACTEC | 0% |
| O=C1c2scnc2-c2nccc3c2c1nc1ccccc13 | H37Rv | - | MIC | - | 10.7 µM |